Our source for the inhibition values is PubChem BioAssay AID2234 (The Scripps Research Institute Molecular Screening Center, 2010).

Protein sequences, listed by entry. Tags and fused reporters are not part of them.
UniProt P03206, whole entry: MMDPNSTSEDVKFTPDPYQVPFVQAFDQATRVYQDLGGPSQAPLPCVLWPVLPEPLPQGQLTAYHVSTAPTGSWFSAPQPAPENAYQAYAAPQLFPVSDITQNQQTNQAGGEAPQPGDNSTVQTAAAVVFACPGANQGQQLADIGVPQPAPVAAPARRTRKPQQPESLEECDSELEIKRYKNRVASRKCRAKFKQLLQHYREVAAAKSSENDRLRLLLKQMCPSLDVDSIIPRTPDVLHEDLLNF

Broadly, the inhibition is the relative decrease from the control value, in per cent.

The list shows a part of the results, in another mix than the full data. Active and inactive are the calls of the source. Rule as the data show it: active = inhibition above about 33%; inactive = the rest.

In this assay the target is Lytic switch protein BZLF1 (Epstein-Barr virus (strain B95-8)) (UniProt P03206). The experiment in a line: Zta-DNA interaction blockers, Epstein-Barr virus – biochemical, fluorescence polarization, single concentration, counter-screen for EBNA-1 inhibitor project, primary screen (AID 2234). The settings on record: ZTA-DNA binding, at 11 µM, hits give high values. (In fluorescence polarisation assays a small probe gives low polarisation when free and higher when bound to something large.)
As to `CCOC(=O)N1CCC(Nc2ccc(C)cc2)CC1`, the inhibition is inactive: 1.37%. Next, `N/C(=N\O)c1c(N)no[n+]1[O-]`: inactive: 3.68%. Next, `CCc1cc(C(=O)NCC2(N3CCCCC3)CCCCC2)sc1C`: inactive: -8.99%; `O=C(OC1CN2CCC1CC2)C1c2ccccc2C=Cc2ccccc21` (stereo unspecified): inactive: -2.65%. For the compound `O=C(NCC1(N2CCOCC2)CCCCC1)c1cc(Br)ccc1Cl`, the inhibition is inactive: 7.03%. Regarding `COc1ccc(C(=O)NCC2(N3CCOCC3)CCCCC2)cc1OC`, the inhibition was inactive: 0.2%.

As to `CN(C)C1(CNC(=O)c2cccc(C#N)c2)CCCCC1`, the inhibition was inactive: 0.65%. The figure for `CCCN1CCC(Nc2cc(OC)cc(OC)c2)CC1` is inactive: -12.7%. `c1ccc(CN2CCC(Nc3ccccc3)CC2)cc1`: the inhibition was inactive: 5.71%. Next, `N#Cc1ccc(C(=O)NCC2(N3CCCCC3)CCCCC2)cc1`: inactive: 1.74%; `CC(C)(C)OC(=O)N1CCC(N(C(=O)c2ccccc2)c2ccc(Cl)cc2)CC1`: inactive: -6.43%; `CCN1CCC(Nc2cccc(F)c2)CC1`: inactive: 1.13%. Next, `CN(C)c1ccc(C(=O)NCC2(N3CCCCC3)CCCCC2)cc1`: inactive: -8.43%; `O=C(NCC1(N2CCCCC2)CCCCC1)c1ccco1`: inactive: -5.83%. `COc1cc(OC)cc(C(=O)NCC2(N3CCCCC3)CCCCC2)c1`: the inhibition is inactive: 1.7%.

`Fc1ccccc1NC1CCN(Cc2ccccc2)CC1`: the inhibition is inactive: -2.1%. Next, `Cc1ccc(C(=O)NCC2(N3CCCCC3)CCCCC2)o1`: inactive: 11.6%. Next, `COc1cccc(C(=O)N(c2cc(C)cc(C)c2)C2CCN(C(=O)OC(C)(C)C)CC2)c1`: inactive: -7.17%; `COc1cc(OC)cc(C(=O)NCC2(N3CCOCC3)CCCCC2)c1`: inactive: 18.8%. The figure for `CCC(CO)(C(=O)OC1CN2CCC1CC2)c1ccccc1` (stereo unspecified) is inactive: -7.86%; for `CN1CCC(Nc2ccc(Cl)cc2)CC1` it is inactive: 14.2%.

`CCCOc1ccc(C)cc1CN(CCCl)CCCl`: the inhibition is inactive: 13.7%. Next, `CN1CCC(Nc2ccc(F)c(Cl)c2)CC1`: inactive: -11.2%; `CCOc1ncccc1C(=O)NCC1(N2CCOCC2)CCCCC1`: inactive: 10.2%; `O=C(O)C1(Nc2ccccc2)CCN(Cc2ccccc2)CC1`: inactive: -11.9%.

In the case of `CC(C)(C)OC(=O)N1CCC(Nc2ccccc2)CC1`, the inhibition is inactive: -7.97%. As for `CCCOc1ccc(C(=O)NCC2(N(C)C)CCCCC2)cc1`, the inhibition was inactive: -6.71%. The figure for `Cc1cc(C)cc(N(C(=O)c2ccccc2)C2CCN(C(=O)OC(C)(C)C)CC2)c1` is inactive: -12.1%.

With `O=C(NCC1(N2CCCCC2)CCCCC1)c1ccc(Cl)nc1`, the inhibition was inactive: -18%. `O=C(NCC1(N2CCOCC2)CCCCC1)c1cc2ccccc2o1`: the inhibition is inactive: -9.31%. Turning to `COc1ccc(Cl)cc1C(=O)NCC1(N2CCOCC2)CCCCC1`, the inhibition is inactive: 1.82%. The figure for `N#CC1(Nc2ccccc2)CCN(Cc2ccccc2)CC1` is inactive: 5.2%; for `O=C(NCC1(N2CCCCC2)CCCCC1)c1ccc(Cl)s1` it is inactive: -25.1%. Regarding `O=C(OC1CN2CCC1CC2)C1c2ccccc2Oc2ccccc21` (stereo unspecified), the inhibition was inactive: -2.87%. As to `CCOC(=O)N1CCC(Nc2ccc(OC)cc2)CC1`, the inhibition was inactive: 7.88%. The figure for `COc1ccc(C(=O)NCC2(N3CCCCC3)CCCCC2)c(OC)c1OC` is inactive: 14.2%; for `CC(C)(C)OC(=O)N1CCC(N(C(=O)c2ccccc2)c2ccc(F)cc2)CC1` it is inactive: 13.9%. The figure for `COc1ccc(C(=O)NCC2(N3CCCCC3)CCCCC2)cc1` is inactive: -17.2%; for `O=C(NCC1(N2CCCCC2)CCCCC1)c1cccs1` it is inactive: 11.5%. In the case of `O=C(NCC1(N2CCCCC2)CCCCC1)c1ccc(=O)[nH]c1`, the inhibition was inactive: 7.44%.

As for `CSc1ccccc1C(=O)NCC1(N2CCCCC2)CCCCC1`, the inhibition was inactive: -13.6%.

Take `Cc1ccc(OCC(C)C)c(CN(CCCl)CCCl)c1`: the inhibition is inactive: -6.92%.

For the compound `CCOC(=O)N1CCC(Nc2cccc(C)c2)CC1`, the inhibition is inactive: 8.31%. Next, `CCOc1ccc(C)cc1CN(CCCl)CCCl`: inactive: 1.89%; `COc1ccc(NC2CCN(CCc3ccccc3)CC2)c(OC)c1`: inactive: -6.89%; `O=C(NCC1(N2CCCCC2)CCCCC1)c1ccc(F)cc1`: inactive: -0.59%. The figure for `O=C(NCC1(N2CCCCC2)CCCCC1)c1cccc(C(F)(F)F)c1` is inactive: 0.36%; for `O=C(NCC1(N2CCOCC2)CCCCC1)c1cc(=O)[nH]c2ccccc12` it is inactive: 11.4%.

As to `COc1cc(C(=O)NCC2(N3CCCCC3)CCCCC2)ccc1OC(F)F`, the inhibition is inactive: -13.8%. Next, `COc1ccc(NC2CCN(C(=O)OC(C)(C)C)CC2)cc1`: inactive: -13.3%; `CN1CCN(CCOC(=O)C(O)(c2ccccc2)c2ccccc2)CC1`: inactive: 3.03%; `O=C(NCC1(N2CCCCC2)CCCCC1)c1ccc(OC(F)F)cc1`: inactive: -0.45%.

As to `N#CC1(Nc2ccccc2)CCN(CCc2ccccc2)CC1`, the inhibition is inactive: -19.9%. Regarding `CCN1CCC(Nc2ccc(Cl)cc2)CC1`, the inhibition is inactive: 14.9%. The figure for `O=C(NCC1(N2CCCCC2)CCCCC1)c1cccc([N+](=O)[O-])c1` is inactive: -1.24%.

Regarding `CN1CCC(Nc2cccc(F)c2)CC1`, the inhibition was inactive: 13.7%.

Consider `O=C(NCC1(N2CCCCC2)CCCCC1)c1cncc(Br)c1`, for which the inhibition is inactive: 10.6%. The figure for `CC(C)c1ccc(NC2CCN(C(=O)OC(C)(C)C)CC2)cc1` is inactive: 1.68%; for `CN(C)c1cccc(C(=O)NCC2(N3CCCCC3)CCCCC2)c1` it is inactive: -4.33%; for `COc1ccc(CN(CCCl)CCCl)cc1Cl` it is inactive: 5.81%.

Turning to `COc1cc(OC)c(C(=O)NCC2(N(C)C)CCCCC2)cc1OC`, the inhibition is inactive: 10.2%.
